One assay deals with HCC827. As to conditions: Lung cancer, cultured for 72 h.
The test system of another assay is Daudi. The following applies: Leukemia, cultured for 72 h.
A further assay relates to ZR-75-1. The following applies: Breast ductal carcinoma, cultured for 72 h.
Another assay deals with LOVO. As to conditions: Colon cancer, cultured for 72 h.
The test system of another assay is HepG2. As to conditions: Liver cancer, cultured for 72 h.
Another assay relates to HT-29. The following applies: read-out: AbsIC50; Colon cancer, cultured for 72 h.
The test system of a further assay is U-2OS. As to conditions: read-out: AbsIC50; Osteosarcoma, cultured for 72 h.
For the next assay, the system named is SK-OV-3. As to conditions: read-out: AbsIC50; Ovarian cancer, cultured for 72 h.
The subject of another assay is tumor cells. As to conditions: read-out: effective inhibition concentration; most tumor cells, 72 h.

Like-named read-outs stand apart in the source and are kept apart here.

Two molecules from patent US20240050395A1 (priority 2020, published 2024) can be followed below.

Consider `O=[As]c1ccccc1` (centres unmarked), for which the IC50 in the assay on HCC827 is 181 nM; in the assay with Daudi, 63.4 nM; in the assay with ZR-75-1, 28.5 nM; with LOVO, over 200 nM; with HepG2 it was 105 nM. Further, in the assay with HCoV229E, the EC50 (usually the concentration at which the effect is half-maximal) is 55.4 nM.

Regarding `[2H]c1ccc([As]=O)cc1` (centres unmarked), the IC50 in the assay with HT-29 is over 200 nM; in the assay on Daudi (read-out: AbsIC50) it was 97.7 nM; in the assay with U-2OS, 71.2 nM; with SK-OV-3, over 200 nM; with tumor cells, over 200 nM.
